Reference: patent US20240391889A1, “ANTIMICROBIAL COMPOUNDS AND THE METHODS OF USE” (priority 2021, published 2024)

System: HepG2 liver cells
Assay type: cell-based
Protocol: The mammalian cell lines that were tested (HepG2, 3T3, and HaCat) were incubated with RMG9-11 for 72 hours and cell viability was determined via mitochondrial activity using an MTT reduction assay where viable cells reduce MTT to formazan. Toxicity is reported as the concentration of the peptoid that results in a 50% reduction in viable cells, termed toxicity dose 50% or TD50. […] SR is defined as the TD50 divided by MIC and provides a measure of the therapeutic window for a compound. Typically for most lead compounds that would continue through development and optimization, a SR of 10 is preferred while an SR of 100 is more desirable for a compound moving into preclinical animal model evaluation.
Hepatocellular carcinoma (HepG2), mouse fibroblast (3T3), and human keratinocyte (HaCat) cells were cultured in Dulbeco modified eagle media (DMEM) containing 10% fetal bovine serum (FBS) and 1% penicillin, streptomycin, and glutamine (PSG) at 37° C. and 5% CO2. Cells were collected and adjusted to […] to 4×10^5 cells/mL in phenol-red free DMEM and plated (100 μL) 96 well plates. 2-fold serial dilutions of 10× peptoid (11.1 μL) were added to each well in triplicate. Water (vehicle) was used as a negative control. Plates were incubated at 37° C. in 5% CO2 for 72 hours. […] Plates were read on a SPECTRAMAX M5 plate reader (Abs. 570 nm). […]

For `CCCCCCCCCCCCCNCC(=O)N(CCC)CC(=O)N(CC(=O)N(CCCCN)CC(=O)N(CC(=O)N(CC(=O)N(CCCN)CC(N)=O)Cc1ccccc1)Cc1ccco1)CC1CCCCC1` [Compound 911-M10] (H-[N(tridecyl)Gly][NPrGly][NCyclohexylmethylGly][Nlys][NFurfurylGly][Nphe][Gly(N(CH2)3NH2)]-NH2; N-terminus assumed), the “C. neoformans SR (HepG2 TD50/MIC)” value (HepG2 TD50 divided by C. neoformans MIC) was 63-125 and the “C. albicans SR (HepG2 TD50/MIC)” value (HepG2 TD50 divided by MIC against planktonic C. albicans) was 16.

Square brackets hold non-standard residues; d marks the D form. Peptide text beside a SMILES is read from it. NCyclohexylmethylGly = O=C(O)CNCC1CCCCC1; N(tridecyl)Gly = CCCCCCCCCCCCCNCC(=O)O; NFurfurylGly = O=C(O)CNCc1ccco1; Gly(N(CH2)3NH2) = NCCCNCC(=O)O; Nphe = O=C(O)CNCc1ccccc1; NPrGly = CCCNCC(=O)O; Nlys = NCCCCNCC(=O)O
